From patent publication US10076533B2, “Acyclic nucleoside phosphonate diesters” (The Regents of the University of California, priority 2013, dated 2018)
The index is printed as in the source, without its formula.

How the values were obtained:
[1] = tested on: Copenhagen strain of vaccinia virus; assay type: cell-based; conditions: HFF cells
HPV-11 = HPV-11 origin replication in HEK 293 cells, qPCR; assay type: cell-based; conditions: HPV-11, HEK 293 cells
Description: An origin-containing plasmid was co-transfected with HPV-11 E1 and E2 protein expression vectors into HEK 293 cells. At 4 hr post-transfection, cells were treated with compound dilutions and the cells were incubated for 48 hr. Replication of the virus origin was detected with DpnI and exonuclease III to remove unreplicated input bacterial plasmid DNA. Remaining replicated DNA was quantified by qPCR. Toxicity was determined by trypan blue exclusion.

MAD-1 strain of JC virus = test: Antiviral effect in JC virus (MAD-1) infected COS7 cells, qPCR
HIV-192US727 = test: Anti-HIV assay in human PBMC, supernatant reverse transcriptase activity; conditions: HIV-192US727, human PBMC
[2] = tested on: AD169 strain of human cytomegalovirus; test: Antiviral effect in HFF cells infected with human cytomegalovirus (AD169)
[3] = tested on: BK virus (Gardner strain); test: Antiviral effect in HFF cells infected with BK virus (Gardner strain), qPCR

Structure (SMILES)	Selectivity Index [1]	Selectivity Index (HPV-11)	Selectivity Index (MAD-1 strain of JC virus)	Selectivity Index (HIV-192US727)	Selectivity Index [2]	Selectivity Index [3]
CCCCCCCCCCCCCCCCCCOC[C@H](COP(=O)(CO[C@H](CO)Cn1cnc2c(N)ncnc21)OCc1ccccc1)OCc1ccccc1 (stereo partly drawn) [Compound 230, benzyl 1-O-octadecyl-2-O-benzyl-sn-glyceryl 9-(S)-[(3-hydroxypropyl-2-phosphonomethoxy)propyl]adenine]	1625	>17.9	<4.6	>5.5	>124	327
CCCCCCCCCCCCCCCCCCOC[C@H](COP(=O)(CO[C@H](CO)Cn1ccc(N)nc1=O)OCc1ccccc1)OCc1ccccc1 (stereo partly drawn) [Compound 231, benzyl 1-O-octadecyl-2-O-benzyl-sn-glyceryl 1-(S)-[3-hydroxy-2-(phosphonomethoxy)propyl]cytosine]	>435	>6.41	<3	>63.3	>633	>443
CCCCCCCCCCCCCCCCCCOCCOP(=O)(CO[C@H](C)Cn1cnc2c(N)ncnc21)Oc1ccccc1 (stereo partly drawn) [Compound 92, phenyl octadecyloxyethyl 9-(R)-[(2-phosphonomethoxy)propyl]adenine]				>4820		
CCCCCCCCCCCCCCCCOCCCOP(=O)(COCCn1cnc2c(=O)[nH]c(N)nc21)Oc1ccccc1 (centres unmarked) [Compound 25, phenyl hexadecyloxypropyl 9-(2-phosphonomethoxyethyl)guanine]				>125		
